According to patent publication US11584744B2 (UNIVERSITY OF WASHINGTON, priority 2017, dated 2023):

Tested on: S. aureus
Experiment: Serum shift assays (MIC with and without 50% human serum)
Type: cell-based, Staphylococcus aureus
Details: 50% human serum vs no serum
Protocol: Serum shift assays: To assess the role of protein binding on compound susceptibility, MIC determinations were performed in triplicate in the presence and absence of 50% human serum. Serial threefold dilutions of 2× compound were generated in MHB and aliquoted onto 96 well plates with a DMSO limit of 0.5%. Bacteria were adjusted to 1*10^8 CFUs/mL in MHB, then further diluted 1:100 in MHB and 100% heat deactivated filter sterilized pooled human serum. Fifty microliters were added to each well of the corresponding plates, and the plates were incubated at 37° C. for ˜20 h. The lowest concentration causing ≥90% growth inhibition was recorded as the MIC.

Compound	Avg Fold-shift of MIC
CCCn1c(Cc2ccc(Cl)cc2Cl)cn(Cc2nc3ccc(F)nc3[nH]2)c1=O [Compound 2069, 4-[(2,4-dichlorophenyl)methyl]-1-({5-fluoro-1H-imidazo[4,5-b]pyridin-2-yl}methyl)-3-propyl-2,3-dihydro-1H-imidazol-2-one]	506.9
CCn1c(Cc2ccc(OC)cc2Cl)cn(Cc2nc3ccc(Cl)nc3[nH]2)c1=O [Compound 2093, 1-({5-chloro-1H-imidazo[4,5-b]pyridin-2-yl}methyl)-4-[(2-chloro-4-methoxyphenyl)methyl]-3-ethyl-2,3-dihydro-1H-imidazol-2-one]	267.9
COc1cc(Cl)c(-c2cccc3nc(Cc4nc5nc(Cl)ccc5[nH]4)cn23)cc1OC [Compound 2144, 2-({5-chloro-1H-imidazo[4,5-b]pyridin-2-yl}methyl)-5-(2-chloro-4,5-dimethoxyphenyl)imidazo[1,2-a]pyridine]	56.5
Fc1ccc2nc(NCCCNCc3cc(Cl)cc(Cl)c3)[nH]c2n1 [Compound 1614, [(3,5-dichlorophenyl)methyl][3-({5-fluoro-3H-imidazo[4,5-b]pyridin-2-yl}amino)propyl]amine]	17.3
Fc1ccc2nc(NCCCN[C@@H]3CCNc4c(Cl)cc(Cl)cc43)[nH]c2n1 [Compound 1717, (4R)-6,8-dichloro—N-[3-({5-fluoro-3H-imidazo[4,5-b]pyridin-2-yl}amino)propyl]-1,2,3,4-tetrahydroquinolin-4-amine, reference compound]	23.5
CCn1c(Cc2ccc(Cl)cc2Cl)cn(Cc2nc3nc(F)ccc3[nH]2)c1=O [Compound 2062, 4-[(2,4-dichlorophenyl)methyl]-3-ethyl-1-({5-fluoro-1H-imidazo[4,5-b]pyridin-2-yl}methyl)-2,3-dihydro-1H-imidazol-2-one]	208.1
